## PSTVd loop 15 mutant pool in Nicotiana benthamiana

PSTVd intermediate strain, loop 15: wild type GGAAACCGCUACUAC, pool pattern GGAAACCGNNNNNNC; upper and lower strand joined, each 5' to 3', the first 7 letters being the upper strand, closing pairs included.

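A pool of all variants was put on leaves of three Nicotiana benthamiana plants. Progeny were sequenced from the inoculated region (day 5), the margin of the inoculated leaf (day 10) and systemic leaves (day 12).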

Numbers give reads per thousand; 0 = not seen among the reads, higher = more abundant. Each site shows the three plants. "Pool" is the share in the plasmid pool used as inoculum, on the same scale. The inoculated region was read from the minus strand, the other sites from the plus strand.

sequence | pool | inoculated region | leaf margin | systemic leaves
GGAAACCACUACUAC | 0.128 | 0.491 0.305 0.324 | 0.420 0.289 0.301 | 0.129 0.197 0.137
GGAAACCGAAAAAAC | 0.416 | 0.344 0.321 0.286 | 0.243 0.0891 0.200 | 0.0483 0 0
GGAAACCGAAAAACC | 0.192 | 0.131 0.0161 0.0952 | 0.0323 0 0.0401 | 0 0 0
GGAAACCGAAAAAGC | 0.208 | 0.0655 0.0643 0.0762 | 0.0162 0 0 | 0 0 0
GGAAACCGAAAAAUC | 0.208 | 0.164 0.0803 0.267 | 0 0 0.0200 | 0 0 0
GGAAACCGAAAACAC | 0.160 | 0.229 0.209 0.457 | 0.162 0.111 0.240 | 0.0644 0.0151 0.182
GGAAACCGAAAACCC | 0.176 | 0.0819 0.112 0.0952 | 0.0162 0 0 | 0 0 0
GGAAACCGAAAACGC | 0.256 | 0.164 0.0803 0.171 | 0.0323 0 0 | 0 0 0
GGAAACCGAAAACUC | 0.192 | 0.147 0.0803 0.114 | 0.0162 0 0.0200 | 0 0 0
GGAAACCGAAAAGAC | 0.320 | 0.147 0.0803 0.114 | 0 0 0.0401 | 0 0 0
GGAAACCGAAAAGCC | 0.304 | 0.115 0.0482 0.133 | 0 0.0445 0.0200 | 0 0 0
GGAAACCGAAAAGGC | 0.0960 | 0.131 0.145 0.0762 | 0 0 0 | 0 0 0
GGAAACCGAAAAGUC | 0.224 | 0.0983 0.0643 0.0381 | 0 0 0.0200 | 0.0161 0 0
GGAAACCGAAAAUAC | 0.128 | 0.246 0.321 0.457 | 0.0647 0.0445 0.180 | 0.0322 0.0454 0.137
GGAAACCGAAAAUCC | 0.240 | 0.0819 0.0482 0.171 | 0.0323 0 0 | 0 0 0
GGAAACCGAAAAUGC | 0.224 | 0.311 0.482 0.419 | 0.113 0.0445 0.140 | 0.0483 0.0151 0
GGAAACCGAAAAUUC | 0.304 | 0.295 0.257 0.362 | 0.146 0.178 0.120 | 0.145 0.0303 0.0228
GGAAACCGAAACAAC | 0.160 | 0.328 0.337 0.571 | 0.0808 0.134 0.140 | 0.0483 0 0
GGAAACCGAAACACC | 0.224 | 0.0491 0.112 0.190 | 0.0162 0 0.0200 | 0 0 0
GGAAACCGAAACAGC | 0.176 | 0.0983 0.0964 0.114 | 0 0 0.0601 | 0 0 0
GGAAACCGAAACAUC | 0.176 | 0.147 0.0803 0.114 | 0 0 0.0200 | 0.0161 0 0
GGAAACCGAAACCAC | 0.240 | 0.459 0.402 0.457 | 0.0647 0.111 0.0801 | 0.0161 0.0151 0.0456
GGAAACCGAAACCCC | 0.208 | 0.115 0.129 0.0762 | 0.0162 0 0 | 0 0 0
GGAAACCGAAACCGC | 0.224 | 0.0655 0.0964 0.133 | 0.0162 0.0223 0.0200 | 0 0 0
GGAAACCGAAACCUC | 0.336 | 0.0491 0.0803 0.152 | 0 0 0.0401 | 0.0161 0 0
GGAAACCGAAACGAC | 0.144 | 0.147 0.0321 0.114 | 0.0162 0.0223 0.0200 | 0 0 0
GGAAACCGAAACGCC | 0.192 | 0.0983 0.0643 0.0762 | 0 0 0 | 0.0161 0.0151 0
GGAAACCGAAACGGC | 0.272 | 0.115 0.0482 0.114 | 0.0162 0 0 | 0 0 0
GGAAACCGAAACGUC | 0.256 | 0.131 0.0964 0.152 | 0 0 0 | 0 0 0
GGAAACCGAAACUAC | 0.208 | 0.278 0.257 0.248 | 0.129 0.0891 0.180 | 0.0322 0.0605 0.114
GGAAACCGAAACUCC | 0.0960 | 0.0655 0.0161 0.0952 | 0 0 0 | 0 0 0
GGAAACCGAAACUGC | 0.272 | 0.262 0.337 0.495 | 0.194 0.0668 0.120 | 0.0322 0 0
GGAAACCGAAACUUC | 0.208 | 0.786 0.771 0.400 | 0.146 0.0445 0.0801 | 0.0483 0.0454 0.205
GGAAACCGAAAGAAC | 0.224 | 0.278 0.209 0.286 | 0.194 0.0445 0.200 | 0.0322 0.0605 0.0456
GGAAACCGAAAGACC | 0.272 | 0.0655 0.0803 0.209 | 0 0 0.0401 | 0.0161 0 0
GGAAACCGAAAGAGC | 0.192 | 0.0655 0.0482 0.114 | 0 0 0.0200 | 0 0 0
GGAAACCGAAAGAUC | 0.384 | 0.295 0.321 0.381 | 0.194 0.0223 0.120 | 0.0161 0 0
GGAAACCGAAAGCAC | 0.240 | 0.295 0.257 0.305 | 0.146 0.0668 0.100 | 0.0805 0 0

Extract of 3 entries:

- GGAAACCGAAACGAC (pool 0.144) = inoculated region 0.147 0.0321 0.114; leaf margin 0.0162 0.0223 0.0200; systemic leaves 0 0 0
- GGAAACCGAAAACGC (pool 0.256) = inoculated region 0.164 0.0803 0.171; leaf margin 0.0323 0 0; systemic leaves 0 0 0
- GGAAACCGAAACUCC (pool 0.0960) = inoculated region 0.0655 0.0161 0.0952; leaf margin 0 0 0; systemic leaves 0 0 0

Samples held 43,870 to 66,106 reads, so the smallest values rest on one or two reads. For reference, wild type rose from 33.9 per thousand in the pool to 202, 200, 159 (inoculated region), 724, 746, 710 (leaf margin) and 856, 883, 880 (systemic leaves). Sequences that differ at fixed positions probably stem from PCR or sequencing errors, and defective variants can be carried along by functional ones.

Reference: Wu et al. 2024, doi:10.1371/journal.ppat.1012142.